Key:
human NaV1.3 = human NaV1.3 (Homo sapiens, UniProt Q9NY46); assay: Automated whole-cell patch-clamp, hNaV1.3; conditions: for IC50: read-out: Potency (IC50) at NaV1.3, HEK293 cells, hNaV1.3 α + β1, QPatch16 II whole-cell patch-clamp, holding −90 mV, 50-ms pulse to −20 mV, 0.05 Hz, 5-min incubation per concentration, mean ± SEM
human NaV1.6 = human NaV1.6 (Homo sapiens, UniProt Q9UQD0); assay: Automated whole-cell patch-clamp, hNaV1.6; conditions: read-out: Potency (IC50) at NaV1.6; HEK293 cells, hNaV1.6 α + β1; QPatch16 II whole-cell patch-clamp; holding −90 mV, 50-ms pulse to −20 mV, 0.05 Hz; 5-min incubation per concentration; mean ± SEM
human NaV1.1–NaV1.8 = assay: Selectivity across human NaV channel subtypes (patch-clamp panel); conditions: from IC50 values
human NaV1.7 = human NaV1.7 (Homo sapiens, UniProt Q15858); assay: Automated whole-cell patch-clamp, hNaV1.7; conditions: tested up to 10 µM

Chains of the proteins cited; added tags and fusions are not shown.
UniProt Q9NY46, whole entry, looked up: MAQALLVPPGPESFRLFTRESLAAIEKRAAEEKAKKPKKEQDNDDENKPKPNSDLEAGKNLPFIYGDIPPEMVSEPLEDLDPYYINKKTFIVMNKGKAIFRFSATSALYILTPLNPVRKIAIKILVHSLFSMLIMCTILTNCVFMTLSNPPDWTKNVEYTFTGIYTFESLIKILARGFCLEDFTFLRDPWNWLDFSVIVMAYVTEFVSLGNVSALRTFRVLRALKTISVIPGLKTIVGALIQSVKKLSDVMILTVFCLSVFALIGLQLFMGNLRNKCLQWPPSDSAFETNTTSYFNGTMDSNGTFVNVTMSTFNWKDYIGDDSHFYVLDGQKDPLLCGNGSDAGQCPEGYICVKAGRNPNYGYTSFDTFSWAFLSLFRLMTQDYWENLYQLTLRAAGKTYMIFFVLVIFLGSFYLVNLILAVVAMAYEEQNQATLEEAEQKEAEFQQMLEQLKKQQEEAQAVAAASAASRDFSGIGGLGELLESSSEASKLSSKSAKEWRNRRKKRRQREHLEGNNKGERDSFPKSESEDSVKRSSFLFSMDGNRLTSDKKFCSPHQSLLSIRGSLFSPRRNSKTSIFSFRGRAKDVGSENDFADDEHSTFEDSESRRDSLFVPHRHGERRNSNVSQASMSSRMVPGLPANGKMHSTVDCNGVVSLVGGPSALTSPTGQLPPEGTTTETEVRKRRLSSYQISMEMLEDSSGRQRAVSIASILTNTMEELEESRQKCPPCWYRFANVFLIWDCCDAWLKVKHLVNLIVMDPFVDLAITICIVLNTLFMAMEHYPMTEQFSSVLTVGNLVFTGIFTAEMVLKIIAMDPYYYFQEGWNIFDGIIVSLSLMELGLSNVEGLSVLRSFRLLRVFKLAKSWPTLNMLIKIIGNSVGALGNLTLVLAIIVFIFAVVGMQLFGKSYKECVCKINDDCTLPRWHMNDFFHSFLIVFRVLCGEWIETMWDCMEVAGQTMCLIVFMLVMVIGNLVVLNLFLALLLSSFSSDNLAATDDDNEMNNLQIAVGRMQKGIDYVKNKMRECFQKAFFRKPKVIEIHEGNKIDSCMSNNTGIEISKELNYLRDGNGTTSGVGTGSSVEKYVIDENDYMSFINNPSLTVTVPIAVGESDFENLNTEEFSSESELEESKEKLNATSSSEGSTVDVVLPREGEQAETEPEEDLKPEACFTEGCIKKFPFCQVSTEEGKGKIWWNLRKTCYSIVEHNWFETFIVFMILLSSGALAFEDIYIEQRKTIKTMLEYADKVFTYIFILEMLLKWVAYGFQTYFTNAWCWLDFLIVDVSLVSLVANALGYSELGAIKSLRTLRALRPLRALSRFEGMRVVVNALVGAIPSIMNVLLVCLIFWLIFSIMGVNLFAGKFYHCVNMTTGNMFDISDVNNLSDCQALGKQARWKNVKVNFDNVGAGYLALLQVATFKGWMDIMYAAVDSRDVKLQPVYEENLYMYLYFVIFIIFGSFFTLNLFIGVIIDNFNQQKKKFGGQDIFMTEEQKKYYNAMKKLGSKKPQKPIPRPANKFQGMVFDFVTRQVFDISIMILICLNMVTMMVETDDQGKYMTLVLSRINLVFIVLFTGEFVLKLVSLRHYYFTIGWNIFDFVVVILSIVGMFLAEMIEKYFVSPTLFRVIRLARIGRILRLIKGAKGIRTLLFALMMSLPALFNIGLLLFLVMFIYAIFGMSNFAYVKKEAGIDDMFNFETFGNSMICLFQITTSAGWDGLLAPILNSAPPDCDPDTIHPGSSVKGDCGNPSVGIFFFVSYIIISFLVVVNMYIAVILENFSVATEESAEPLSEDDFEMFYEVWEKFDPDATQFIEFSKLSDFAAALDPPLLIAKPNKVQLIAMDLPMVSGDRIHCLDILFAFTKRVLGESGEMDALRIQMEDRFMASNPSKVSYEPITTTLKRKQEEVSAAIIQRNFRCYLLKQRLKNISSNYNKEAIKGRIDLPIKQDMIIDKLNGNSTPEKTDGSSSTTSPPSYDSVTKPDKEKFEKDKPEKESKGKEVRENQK
UniProt Q9UQD0, whole entry, looked up: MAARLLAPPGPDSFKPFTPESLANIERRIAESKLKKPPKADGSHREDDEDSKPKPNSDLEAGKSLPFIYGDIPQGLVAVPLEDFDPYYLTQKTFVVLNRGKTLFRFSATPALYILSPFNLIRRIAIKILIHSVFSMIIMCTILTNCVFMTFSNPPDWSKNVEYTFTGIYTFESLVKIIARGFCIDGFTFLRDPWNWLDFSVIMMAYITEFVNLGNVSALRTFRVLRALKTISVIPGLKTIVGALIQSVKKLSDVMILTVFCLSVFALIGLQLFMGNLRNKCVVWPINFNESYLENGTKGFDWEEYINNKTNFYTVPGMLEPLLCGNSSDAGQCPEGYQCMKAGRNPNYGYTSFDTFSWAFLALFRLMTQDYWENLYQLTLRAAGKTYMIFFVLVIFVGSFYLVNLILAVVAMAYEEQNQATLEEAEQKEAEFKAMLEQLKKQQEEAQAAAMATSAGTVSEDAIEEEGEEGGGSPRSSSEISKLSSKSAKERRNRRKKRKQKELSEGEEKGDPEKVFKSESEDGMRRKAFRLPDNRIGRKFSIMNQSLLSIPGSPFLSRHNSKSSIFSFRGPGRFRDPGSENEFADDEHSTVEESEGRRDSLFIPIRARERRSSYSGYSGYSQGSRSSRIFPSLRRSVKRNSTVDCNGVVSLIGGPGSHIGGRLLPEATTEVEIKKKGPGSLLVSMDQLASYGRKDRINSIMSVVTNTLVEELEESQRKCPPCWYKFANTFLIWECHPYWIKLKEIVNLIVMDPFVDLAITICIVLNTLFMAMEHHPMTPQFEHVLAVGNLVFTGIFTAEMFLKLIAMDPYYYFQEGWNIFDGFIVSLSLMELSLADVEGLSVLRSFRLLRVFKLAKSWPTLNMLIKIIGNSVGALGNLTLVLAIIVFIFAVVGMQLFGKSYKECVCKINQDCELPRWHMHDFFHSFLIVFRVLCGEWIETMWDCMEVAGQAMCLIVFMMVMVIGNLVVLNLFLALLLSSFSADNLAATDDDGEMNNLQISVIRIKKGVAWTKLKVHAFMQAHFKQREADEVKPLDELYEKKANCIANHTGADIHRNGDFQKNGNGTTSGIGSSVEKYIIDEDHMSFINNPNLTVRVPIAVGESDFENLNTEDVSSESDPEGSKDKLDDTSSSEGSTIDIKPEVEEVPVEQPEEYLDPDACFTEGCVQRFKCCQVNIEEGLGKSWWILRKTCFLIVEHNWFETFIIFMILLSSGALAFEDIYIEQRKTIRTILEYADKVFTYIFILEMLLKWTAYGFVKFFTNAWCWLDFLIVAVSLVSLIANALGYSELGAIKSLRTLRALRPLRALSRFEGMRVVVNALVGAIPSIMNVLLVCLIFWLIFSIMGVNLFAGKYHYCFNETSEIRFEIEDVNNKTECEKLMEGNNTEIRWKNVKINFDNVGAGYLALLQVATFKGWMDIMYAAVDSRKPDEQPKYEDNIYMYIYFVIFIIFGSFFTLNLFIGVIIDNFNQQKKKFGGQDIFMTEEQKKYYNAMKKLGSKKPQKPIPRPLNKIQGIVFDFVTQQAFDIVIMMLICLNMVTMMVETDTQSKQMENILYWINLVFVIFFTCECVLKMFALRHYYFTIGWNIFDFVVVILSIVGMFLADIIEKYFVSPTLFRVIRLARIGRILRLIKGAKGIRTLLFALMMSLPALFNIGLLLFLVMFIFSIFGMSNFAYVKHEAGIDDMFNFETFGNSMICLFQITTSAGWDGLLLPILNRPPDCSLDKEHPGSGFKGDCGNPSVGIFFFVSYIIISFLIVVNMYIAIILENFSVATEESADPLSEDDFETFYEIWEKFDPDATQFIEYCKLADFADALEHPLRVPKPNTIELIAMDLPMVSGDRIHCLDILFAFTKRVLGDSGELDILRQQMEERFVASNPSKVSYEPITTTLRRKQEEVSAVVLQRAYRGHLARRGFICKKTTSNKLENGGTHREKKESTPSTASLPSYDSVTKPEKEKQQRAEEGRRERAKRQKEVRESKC
UniProt Q15858, whole entry, looked up: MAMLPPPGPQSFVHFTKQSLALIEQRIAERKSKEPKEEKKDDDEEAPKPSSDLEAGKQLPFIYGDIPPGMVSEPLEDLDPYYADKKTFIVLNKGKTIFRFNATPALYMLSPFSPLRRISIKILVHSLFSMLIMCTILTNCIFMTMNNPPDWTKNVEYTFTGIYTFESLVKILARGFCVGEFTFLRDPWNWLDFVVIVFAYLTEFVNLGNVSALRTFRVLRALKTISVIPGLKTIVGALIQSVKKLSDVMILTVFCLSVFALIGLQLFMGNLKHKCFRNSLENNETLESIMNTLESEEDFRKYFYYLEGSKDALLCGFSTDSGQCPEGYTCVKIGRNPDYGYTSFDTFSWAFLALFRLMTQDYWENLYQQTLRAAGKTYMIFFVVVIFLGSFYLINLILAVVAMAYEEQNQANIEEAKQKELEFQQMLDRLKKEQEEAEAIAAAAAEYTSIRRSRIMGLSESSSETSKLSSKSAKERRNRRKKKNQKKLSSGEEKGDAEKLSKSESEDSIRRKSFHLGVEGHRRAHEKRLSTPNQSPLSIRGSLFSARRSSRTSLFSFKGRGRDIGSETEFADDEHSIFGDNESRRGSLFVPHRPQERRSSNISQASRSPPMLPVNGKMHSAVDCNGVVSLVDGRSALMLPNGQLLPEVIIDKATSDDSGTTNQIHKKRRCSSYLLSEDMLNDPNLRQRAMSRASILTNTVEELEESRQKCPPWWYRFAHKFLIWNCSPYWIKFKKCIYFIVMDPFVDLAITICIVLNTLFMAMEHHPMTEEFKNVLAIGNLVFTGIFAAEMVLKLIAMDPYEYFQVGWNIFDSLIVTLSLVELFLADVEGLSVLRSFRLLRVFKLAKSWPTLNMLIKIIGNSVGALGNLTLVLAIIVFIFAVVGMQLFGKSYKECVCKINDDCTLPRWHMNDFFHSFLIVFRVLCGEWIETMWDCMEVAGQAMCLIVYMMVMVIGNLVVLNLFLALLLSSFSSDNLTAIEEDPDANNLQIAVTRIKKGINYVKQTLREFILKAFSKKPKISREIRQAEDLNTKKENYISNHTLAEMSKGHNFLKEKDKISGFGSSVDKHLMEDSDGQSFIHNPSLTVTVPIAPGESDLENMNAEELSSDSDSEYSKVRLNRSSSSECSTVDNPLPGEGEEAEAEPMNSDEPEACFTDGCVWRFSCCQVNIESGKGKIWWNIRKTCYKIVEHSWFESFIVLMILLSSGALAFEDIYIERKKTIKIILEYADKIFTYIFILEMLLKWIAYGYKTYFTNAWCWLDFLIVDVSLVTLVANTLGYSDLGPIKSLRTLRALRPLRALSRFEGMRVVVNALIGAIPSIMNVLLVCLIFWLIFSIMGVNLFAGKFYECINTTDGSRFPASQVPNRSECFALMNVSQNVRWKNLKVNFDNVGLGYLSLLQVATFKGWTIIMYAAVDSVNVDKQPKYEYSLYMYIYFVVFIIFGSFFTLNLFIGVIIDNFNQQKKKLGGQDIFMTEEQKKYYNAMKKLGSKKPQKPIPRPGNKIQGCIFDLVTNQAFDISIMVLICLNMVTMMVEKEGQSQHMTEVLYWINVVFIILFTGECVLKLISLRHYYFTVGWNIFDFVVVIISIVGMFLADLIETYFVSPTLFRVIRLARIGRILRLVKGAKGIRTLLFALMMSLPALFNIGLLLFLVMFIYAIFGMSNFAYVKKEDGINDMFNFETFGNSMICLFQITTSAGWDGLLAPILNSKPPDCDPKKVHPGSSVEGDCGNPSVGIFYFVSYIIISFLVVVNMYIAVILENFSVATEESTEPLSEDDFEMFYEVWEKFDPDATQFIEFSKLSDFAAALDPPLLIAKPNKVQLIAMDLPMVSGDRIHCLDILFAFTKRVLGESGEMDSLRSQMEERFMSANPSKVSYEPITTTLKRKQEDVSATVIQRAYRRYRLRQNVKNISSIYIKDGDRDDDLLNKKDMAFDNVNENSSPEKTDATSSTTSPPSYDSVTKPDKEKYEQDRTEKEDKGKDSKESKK

Row | Structure (SMILES) | IC50 (human NaV1.3) [nM] | IC50 (human NaV1.6) [nM] | Selectivity of hNaV1.2 over hNaV1.1 and hNaV1.4 (human NaV1.1–NaV1.8) | Activity at hNaV1.7, in words (human NaV1.7) | Activity at hNaV1.3, summary in words (human NaV1.3)
1 | CC(C)[C@H](N)C(=O)NCC(=O)N[C@@H](CCC(=O)O)C(=O)N[C@@H](CCCNC(=N)N)C(=O)N[C@H]1CSSC[C@@H]2NC(=O)[C@H](Cc3c[nH]c4ccccc34)NC(=O)[C@H](CCCNC(=N)N)NC(=O)CNC(=O)[C@@H]3CSSC[C@@H](C(N)=O)NC(=O)[C@H](CSSC[C@H](NC1=O)C(=O)N[C@@H](CCCCN)C(=O)N[C@@H](CC(N)=O)C(=O)NCC(=O)N[C@@H](CCCCN)C(=O)N[C@@H](CCCNC(=N)N)C(=O)NCC(=O)N3)NC(=O)[C@H](CCCNC(=N)N)NC(=O)[C@H](CO)NC(=O)[C@H](Cc1cnc[nH]1)NC(=O)[C@H](CC(=O)O)NC(=O)[C@H](CCCNC(=N)N)NC2=O | 5 | 171 | – | – | –
2 | C[C@@H]1NC(=O)[C@@H]2CSSC[C@@H](C(N)=O)NC(=O)[C@@H]3CSSC[C@H](NC(=O)[C@@H](N)CSSC[C@H](NC(=O)[C@H](Cc4c[nH]c5ccccc45)NC(=O)[C@H](CCCCN)NC(=O)CNC1=O)C(=O)N[C@@H](CCCCN)C(=O)NCC(=O)N[C@@H](Cc1c[nH]cn1)C(=O)N[C@@H](CO)C(=O)N[C@@H](CCCNC(=N)N)C(=O)N3)C(=O)N[C@@H](CC(N)=O)C(=O)N[C@@H](CCCCN)C(=O)N[C@@H](CC(N)=O)C(=O)NCC(=O)NCC(=O)N2 | – | – | ~ 3.5 fold | – | –
3 | CSCC[C@@H]1NC(=O)[C@H](CCC(N)=O)NC(=O)CNC(=O)[C@H](CC(N)=O)NC(=O)[C@@H]2CCCN2C(=O)[C@H](CCCCN)NC(=O)[C@@H]2CCCN2C(=O)[C@H](CCCNC(=N)N)NC(=O)[C@@H]2CSSC[C@@H]3NC(=O)[C@H](CCCNC(=N)N)NC(=O)[C@H](CO)NC(=O)[C@H](CC(N)=O)NC(=O)[C@H](CCCCN)NC(=O)[C@H](CCC(=O)O)NC(=O)[C@H](CSSC[C@H](NC(=O)[C@H](Cc4ccc(O)cc4)NC(=O)[C@H](CC(C)C)NC(=O)CNC(=O)[C@@H](N)C(C)C)C(=O)N2)NC(=O)[C@H](Cc2c[nH]c4ccccc24)NC(=O)[C@H](CCCNC(=N)N)NC(=O)[C@H](CC(=O)O)NC(=O)[C@H](CSSC[C@@H](C(N)=O)NC3=O)NC(=O)[C@H](CCSC)NC1=O | – | – | – | no effect | –
4 | CC(C)[C@H](NC(=O)[C@@H]1CCCN1C(=O)[C@@H](N)CCCNC(=N)N)C(=O)N[C@H]1CSSC[C@@H]2NC(=O)[C@H](Cc3c[nH]c4ccccc34)NC(=O)[C@H](CCCNC(=N)N)NC(=O)[C@H](CO)NC(=O)[C@H](CO)NC(=O)[C@@H]3CSSC[C@@H](C(N)=O)NC(=O)[C@H](CSSC[C@H](NC1=O)C(=O)N[C@@H]([C@@H](C)O)C(=O)NCC(=O)N[C@@H](CCCCN)C(=O)NCC(=O)N[C@@H](CCCCN)C(=O)N[C@@H](CCCNC(=N)N)C(=O)NCC(=O)N3)NC(=O)[C@H](CCCNC(=N)N)NC(=O)[C@H](CO)NC(=O)[C@H](Cc1c[nH]cn1)NC(=O)[C@H](CC(=O)O)NC(=O)[C@H](CCCNC(=N)N)NC2=O | 163 | 1480 | – | – | –
5 | CC(C)C[C@@H]1NC(=O)[C@H](CCCNC(=N)N)NC(=O)[C@@H]2CCCN2C(=O)[C@H](CCCNC(=N)N)NC(=O)[C@@H]2CSSC[C@@H]3NC(=O)[C@H](CCCNC(=N)N)NC(=O)[C@H](CO)NC(=O)[C@H](Cc4c[nH]cn4)NC(=O)[C@H](CO)NC(=O)[C@H](CCCCN)NC(=O)[C@H](CSSC[C@H](NC(=O)[C@H](Cc4c[nH]cn4)NC(=O)[C@H](CCC(=O)O)NC(=O)CNC(=O)[C@@H](N)C(C)C)C(=O)N2)NC(=O)[C@H](Cc2c[nH]c4ccccc24)NC(=O)[C@H](CCCNC(=N)N)NC(=O)[C@H](CC(=O)O)NC(=O)[C@H](CSSC[C@@H](C(N)=O)NC3=O)NC(=O)[C@H](CCC(=O)O)NC(=O)[C@H](CCCNC(=N)N)NC(=O)[C@H](CCCCN)NC(=O)CNC(=O)[C@H](CCCNC(=N)N)NC(=O)[C@H](Cc2c[nH]c3ccccc23)NC(=O)[C@H](CC(C)C)NC(=O)[C@@H]2CCCN2C(=O)[C@H](CCCCN)NC(=O)[C@@H]2CCCN2C(=O)[C@H](CCCNC(=N)N)NC1=O | 121 | 503 | – | – | potent blockers

From publication PMC10492761, “Identification of sodium channel toxins from marine cone snails of the subgenera Textilia and Afonsoconus” (2023)
